In publication PMC11153131, “Crimean–Congo haemorrhagic fever virus uses LDLR to bind and enter host cells” (2024) one finds Kd, koff and kon data, which are given here for 1 substance.

The assay deals with recombinant LDLR protein, extracellular domain, immobilised on the QCM chip (human) (UniProt P01130). The assay is described as follows: quartz crystal microbalance (QCM).

As usually defined, the Kd is a measure of binding affinity in units of concentration. As usually defined, the koff is the rate constant with which the complex falls apart. Broadly, the kon is the rate constant with which the complex forms. In the case of “combination of CCHFV Gc and Gn (added together) (complex)”, the Kd turned out to be 0.272 nM, the off-rate constant (koff) is 8.67e-06 s⁻¹ and the on-rate constant (kon) was 21000 M⁻¹ s⁻¹.
